In ChEMBL document CHEMBL1828562, “Aryl H-phosphonates 17: (N-aryl)phosphoramidates of pyrimidine nucleoside analogues and their synthesis, selected properties, and anti-HIV activity” (J Med Chem, 2011):
Calls of active or inactive are those of the source. The calls are words filed in the database; no cut-off is given here.

Assays:
[1] = test system: Human immunodeficiency virus 1; experiment: Antiviral activity against HIV1 infected in human CEM/TK+ cells assessed as inhibition of virus-induced cytopathogenicity; format: functional, organism-based
[2] = molecular target: Human immunodeficiency virus type 1 reverse transcriptase (Human immunodeficiency virus 1) (UniProt Q72547); experiment: Inhibition of HIV1 recombinant reverse transcriptase at <= 3 uM preincubated for 5 mins measured after 1 hr by electrophoresis analysis
Method in brief: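 Recombinant HIV-1 RT preincubated 5 min at 45 °C with compound in 50 mM Tris-HCl pH 8.3, 75 mM KCl, 3 mM MgCl2, 10 mM DTT. Started with dNTPs (50 μM final) and run 60 min at 45 °C. Products resolved on 12% denaturing PAGE and imaged by autoradiography. Fully extended product quantified.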

[3] = test system: Human immunodeficiency virus 1; experiment: Antiviral activity against HIV1 infected in human CEM/TK- cells assessed as inhibition of virus-induced cytopathogenicity; format: functional, organism-based

Row | SMILES | inhibition [1] | inhibition [2] | inhibition [3]
1 | Cc1cn([C@H]2C[C@H](N=[N+]=[N-])[C@@H](COP(=O)(O)Nc3ccccn3)O2)c(=O)[nH]c1=O | Active | inactive | inactive
2 | O=c1ccn([C@H]2CC[C@@H](COP(=O)(O)Nc3ccccn3)O2)c(=O)[nH]1 | – | – | inactive
